Assay [1] deals with Escherichia coli. To be noted: J53 SXT2.
For assay [2], the system named is Escherichia coli. The note with it: J53 TET2.

The term MIC denotes the lowest concentration found to suppress growth. A low value points to greater potency. With GENTAMICIN, the MIC in assay [1] and in assay [2] was 0.5 µg/mL throughout.

(Values after ChEMBL document CHEMBL1212795, “Transferable quinolone resistance in Vibrio cholerae” (2010).)
